US20130190228

Biological target: T1, EB peptide (entry blocker)
T1 chain: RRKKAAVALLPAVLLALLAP

B1: neuraminidase (NA) of PR/8 virus (protein)
chain: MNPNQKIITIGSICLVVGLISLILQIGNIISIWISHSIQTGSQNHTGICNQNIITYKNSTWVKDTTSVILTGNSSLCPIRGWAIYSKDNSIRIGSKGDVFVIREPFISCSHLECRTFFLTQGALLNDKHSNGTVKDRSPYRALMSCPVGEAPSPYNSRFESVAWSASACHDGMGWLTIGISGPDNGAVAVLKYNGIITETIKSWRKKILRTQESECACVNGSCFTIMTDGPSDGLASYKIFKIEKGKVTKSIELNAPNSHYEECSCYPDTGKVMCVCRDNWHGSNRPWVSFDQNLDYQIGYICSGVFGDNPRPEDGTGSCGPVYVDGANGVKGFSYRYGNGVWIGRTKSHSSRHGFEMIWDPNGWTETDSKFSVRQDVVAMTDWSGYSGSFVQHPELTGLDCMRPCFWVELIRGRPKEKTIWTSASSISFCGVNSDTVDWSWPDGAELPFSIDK
- neuraminidase activity assay (MUNANA substrate; 1-30 µM EB): the EB peptide did not inhibit NA activity
